Measured values from several laboratories, pooled; numbers as filed in NIAID ChemDB.

Common to all: whole-cell or culture tests; organism: Mycobacterium avium intracellulare

Lines come from different laboratories, so protocols vary.

{"compound": "COc1cc2ccnc3c2c(c1OC(=O)c1ccc(C)cc1)N(C)C=C3", "endpoint": "EC50", "result": "1 µg/mL"}
{"compound": "C=CCc1ccc(OC(=O)/C(C)=C/C)cc1", "strain or isolate": "ATCC 19709", "endpoint": "EC50", "result": "7 µg/mL"}
{"compound": "O/N=C/c1cc[n+](Cc2ccc(C[n+]3ccc(/C=N/O)cc3)s2)cc1.[Cl-].[Cl-]", "method": "resazurin", "endpoint": "EC50", "result": ">20 µg/mL"}
{"compound": "COc1cc2ccnc3c2c(c1OC(=O)c1ccccc1C)N(C)C=C3", "endpoint": "EC50", "result": "5 µg/mL"}
{"compound": "O/N=C/c1cccc[n+]1Cc1csc2ccccc12.[Cl-]", "method": "resazurin", "endpoint": "EC50", "result": ">20 µg/mL"}
{"compound": "CN1CCN(c2c(F)cc3c(=O)c(C(=O)O)cn(CCF)c3c2F)CC1", "endpoint": "MIC50", "result": "25 µg/mL"}
{"compound": "CO[C@H]1/C=C/O[C@@]2(C)Oc3c(C)c(O)c4c(O)c(c(/C=N/N5CCN(C6CCCC6)CC5)c(O)c4c3C2=O)NC(=O)/C(C)=C\\C=C\\[C@H](C)[C@H](O)[C@@H](C)[C@@H](O)[C@@H](C)[C@H](OC(C)=O)[C@@H]1C", "strain or isolate": "23-Feb", "endpoint": "MIC", "result": "0.125 µg/mL"}
{"compound": "CCC(C)C(=O)Oc1ccc(OC)cc1C1OC1C", "strain or isolate": "ATCC 19709", "endpoint": "EC50", "result": "1.5 µg/mL"}
{"compound": "NC(=O)c1cc[n+](CCC[n+]2cccc(/C=N/O)c2)cc1.[Br-].[Br-]", "method": "resazurin", "endpoint": "EC50", "result": ">20 µg/mL"}
{"compound": "COc1c(N2CCNC(C)C2)c(F)cc2c(=O)c(C(=O)O)cn(C3CC3)c12", "strain or isolate": "31 strains", "endpoint": "MIC90", "result": "12.5 µg/mL"}
{"compound": "COc1cc2ccnc3c2c(c1O)N(C)C=C3", "endpoint": "EC50", "result": ">15 µg/mL"}
{"compound": "NC(=O)c1cc[n+](Cc2ccc(C[n+]3ccc(/C=N/O)cc3)s2)cc1.[Cl-].[Cl-]", "method": "resazurin", "endpoint": "EC50", "result": ">20 µg/mL"}
{"compound": "COc1cc2ccnc3c2c(c1OC(=O)c1cccc(C)c1)N(C)C=C3", "endpoint": "EC50", "result": "4 µg/mL"}
{"compound": "COc1cc(NC(C)CCCN)c2nc(C(C)(C)C)cc(C)c2c1Oc1cccc(C(F)(F)F)c1", "endpoint": "MBC", "result": "5 µg/mL"}
{"compound": "COc1cc2ccnc3c2c(c1OC(=O)c1ccc(F)cc1)N(C)C=C3", "endpoint": "EC50", "result": "3.5 µg/mL"}
{"compound": "COc1c(O)c2c(=O)cc(OC)c3c4c(OC)cc(=O)c5c(O)c(OC)c6c(c(c1CC(C)=C6OC(C)=O)c23)c54", "endpoint": "MBC", "result": ">100 µg/mL"}
{"compound": "ON=Cc1ccc[n+](Cc2csc3ccccc23)c1.[Cl-]", "method": "resazurin", "endpoint": "EC50", "result": ">20 µg/mL"}
{"compound": "CCc1ccc(C(=O)Oc2c(OC)cc3ccnc4c3c2N(C)C=C4)cc1", "endpoint": "EC50", "result": "0.8 µg/mL"}

A second listing of 2 rows from above:

CO[C@H]1/C=C/O[C@@]2(C)Oc3c(C)c(O)c4c(O)c(c(/C=N/N5CCN(C6CCCC6)CC5)c(O)c4c3C2=O)NC(=O)/C(C)=C\C=C\[C@H](C)[C@H](O)[C@@H](C)[C@@H](O)[C@@H](C)[C@H](OC(C)=O)[C@@H]1C ; strain or isolate: 23-Feb ; endpoint: MIC ; result: 0.125 µg/mL
O/N=C/c1cc[n+](Cc2ccc(C[n+]3ccc(/C=N/O)cc3)s2)cc1.[Cl-].[Cl-] ; method: resazurin ; endpoint: EC50 ; result: >20 µg/mL

MIC50, MIC90 and the like: level of inhibition, or share of isolates inhibited. ECn: concentration that inhibits the pathogen or its effect by n%.